Source: PMC6242839 (Nature Communications, 2018)

Tested on: B. cereus
Assay: Resistance development by serial passage on gradient concentration
Conditions: after 15 daily serial passages

## CCCCCCCCCCCCO[C@H]1C[C@H](O)[C@@H](O)[C@H](C)O1 [Compound 1]
  Resistance development (change of MIC and MBC): No alteration of MIC and MBC values
